A mixed list of measured activities; the numbers were collected in NIAID ChemDB.

Shared fields: whole-cell or culture tests; organism: Mycobacterium tuberculosis

Rows are shuffled and stem from different studies. Inhibition is in % at the dose shown (toxicity tests: loss of growth or viability). A number after MIC or MFC names an inhibition level or a share of isolates. An empty or dashed field is not shown. ECn is the concentration giving n% inhibition of infection, replication or growth. MIC bound comes from a single tested concentration.

| structure | cells | read-out | strain | dose | method | result |
|---|---|---|---|---|---|---|
| CCCCCCCCCCCNCCNC1CCC(C)CC1 | - | MIC | - | - | - | 25 µM |
| CCCCN(CCNC/C=C(\C)CCC=C(C)C)Cc1ccccc1 | - | MIC | - | - | - | 25 µM |
| CCCCCN(c1ccc(C)cc1)c1ccc(O)c2c1C(=O)c1c(O)ccc(N(CCCCC)c3ccc(C)cc3)c1C2=O | - | MIC | H37Rv | - | - | >100 µg/mL |
| COc1ccc2[nH]cc(CCNCCNCc3cccc(C)c3)c2c1 | - | MIC | - | - | - | 50 µM |
| CCOc1cccc(C(=O)O)c1 | - | MIC | H37Rv | - | - | >100 µg/mL |
| Nc1cccc(/C=C/C(=O)c2ccccc2O)c1 | - | EC50 | - | - | - | >12.5 µg/mL |
| CCOC(=O)Nc1cc2c(c(N)n1)N=C(c1ccc([N+](=O)[O-])cc1)CO2 | - | EC50 | H37Rv | - | - | >12.5 µg/mL |
| CO[C@H]1/C=C/O[C@@]2(C)Oc3c(C)c(O)c4c(=O)c(c5oc6cc(N7CCN(CC(C)C)CC7)cc(=O)c6nc5c4c3=C2O)NC(=O)/C(C)=C\C=C\[C@H](C)[C@H](O)[C@@H](C)[C@@H](O)[C@@H](C)[C@H](OC(C)=O)[C@@H]1C | - | MBC | 3125 (rifampin-sensitive) | - | - | 0.025 µg/mL |
| CCCCCNCCNC[C@]1(C)CCC[C@]2(C)c3ccc(C(C)C)cc3CC[C@@H]12 | - | MIC | - | - | - | 50 µM |
| CC(=O)NS(=O)(=O)c1cc(N)ccc1S(=O)(=O)c1ccc(N)cc1 | - | MIC | H37Rv | - | - | >100 µg/mL |
| CC[C@H]1OC(=O)[C@H](C)[C@@H](O[C@H]2C[C@@](C)(OC)[C@@H](O)[C@H](C)O2)[C@H](C)[C@@H](O[C@@H]2O[C@H](C)C[C@H](N(C)C)[C@H]2O)[C@](C)(O)C[C@@H](C)C(=O)[C@H](C)[C@@H](O)[C@]1(C)O | - | MBC | ATCC 35830 | - | - | >8 µg/mL |
| O=C1CSC(=O)N1c1ccccc1 | - | MIC | H37Rv | - | - | >100 µg/mL |
| CN[C@@H]1[C@H](O[C@H]2[C@H](O[C@@H]3[C@H](O)[C@@H](O)[C@@H](OC(N)=O)[C@@H](O)[C@@H]3N=C(N)N)O[C@@H](C)[C@]2(O)CO)O[C@@H](CO)[C@H](O)[C@H]1O | - | inhibition | H37Rv | 12.8 µg/mL | BACTEC | 90% |
| Cc1cc(O)ccc1N.Cl | - | MIC | H37Rv | - | - | >100 µg/mL |
| COc1cc(CNCCNC(C)Cc2c[nH]c3ccccc23)cc(OC)c1OC | - | MIC | - | - | - | 50 µM |
| O=C(O)C1CC2C3(Cl)C(Cl)=C(Cl)C(Cl)C2(CC1c1c2ccc(=O)c(O)c-2oc2c(O)c(O)ccc12)C3(Cl)Cl | - | inhibition | H37Rv | 12.5 µg/mL | BACTEC | 2% |
| CC1CCC(NCCNC2CCCCCCC2)CC1 | - | MIC | - | - | - | 50 µM |
| Fc1ccc(CCNCCNCCCCc2ccccc2)cc1 | - | MIC | - | - | - | 25 µM |
| COC(=O)/C=C(C)/C=C/C1OC(C)OCC1O | - | inhibition | H37Rv | 12.5 µg/mL | BACTEC | -11% |
| CCOC(=O)Nc1cc(NCC(=O)c2ccc(Cl)cc2)c([N+](=O)[O-])c(N)n1 | - | EC50 | H37Rv | - | - | >12.5 µg/mL |
| O=C(O)CCCCCCCCCCCCCCCCCc1cccc(Cl)c1 | - | MIC | H37Rv | - | - | >100 µg/mL |
| CC[C@H]1OC(=O)[C@H](C)[C@@H](O[C@H]2C[C@@](C)(OC)[C@@H](O)[C@H](C)O2)[C@H](C)[C@@H](O[C@@H]2O[C@H](C)C[C@H](N(C)C)[C@H]2O)[C@](C)(O)C[C@@H](C)CN(C)[C@H](C)[C@@H](O)[C@]1(C)O | - | MIC50 | DRUG-SUS | - | - | >8 µg/mL |
| COC(=O)C(C)(C)O | - | MIC | H37Rv | - | - | >100 µg/mL |
| CCn1c2ccc([N+](=O)[O-])cc2c2c([N+](=O)[O-])c(-n3cccc3)ccc21 | - | inhibition | H37Rv | 12.5 µg/mL | BACTEC | -28% |
| CC(O)COc1ccc([As](=O)([O-])O)cc1.[Na+] | - | MIC | H37Rv | - | - | >100 µg/mL |
| CC(C)c1ccc2c(c1)CC[C@H]1[C@](C)(CNCCNCCF)CCC[C@]21C | - | MIC | - | - | - | 25 µM |
| CCOC(=O)C1=C(C)NC(C)=C(C(=O)OCC)C1c1c(-c2ccccc2)noc1C | - | MIC bound | H37Rv | - | resazurin | >6.25 µg/mL |
| NC1CCN(c2nc3c(cc2F)c(=O)c(C(=O)O)cn3-c2ccc(F)cc2F)C1 | - | MBC | ATCC 35822 | - | - | >8 µg/mL |
| CN(C)c1ccc(C(c2ccc(O)cc2)c2ccc(N(C)C)cc2)cc1 | - | MIC | H37Rv | - | - | >100 µg/mL |
| COC1=CC(=O)c2c(O)c3c(c(O)c2C1=O)C=C(C)OC3O | - | MIC bound | H37Rv | - | BACTEC | ≤12.5 µg/mL |
| COc1ccc(C(=O)/C=C/c2ccncc2)cc1 | - | inhibition | H37Rv | 12.5 µg/mL | - | 0% |
| CCOC(=O)Nc1csc(CCCCC(=O)O)c1NC(=O)c1ccccc1 | - | MIC | H37Rv | - | - | >100 µg/mL |
| O=C(/C=C/c1ccccc1)c1cccc(I)c1O | - | EC50 | H37Rv | - | - | >12.5 µg/mL |
| CO[C@H]1/C=C/O[C@@]2(C)Oc3c(C)c(O)c4c(O)c(c5c(c4c3C2=O)NC2(CCN(CC(C)C)CC2)N=5)=NC(=O)/C(C)=C\C=C\[C@H](C)[C@H](O)[C@@H](C)[C@@H](O)[C@@H](C)[C@H](OC(C)=O)[C@@H]1C | - | MBC | 2912 (rifampin-sensitive) | - | - | 0.05 µg/mL |
| CO[C@H]1/C=C/O[C@@]2(C)Oc3c(C)c(O)c4c(O)c(c5c(c4c3C2=O)NC2(CCN(Cc3ccccc3)CC2)N=5)=NC(=O)/C(C)=C\C=C\[C@H](C)[C@H](O)[C@@H](C)[C@@H](O)[C@@H](C)[C@H](OC(C)=O)[C@@H]1C | VERO | MIC | H37Rv | - | - | 0.0125 µg/mL |
| CCCCCCCCCCCNCCNCc1cc(OC)c(OC)c(OC)c1 | - | MIC | - | - | - | 50 µM |
| Cl.O=C(OCCCCCCN1CCOCC1)C(c1ccccc1)c1ccccc1 | - | MIC | H37Rv | - | - | >100 µg/mL |
| CC(=O)OC[C@H]1O[C@@H](Oc2cc(OC(C)=O)c3c(=O)cc(-c4ccc(OC(C)=O)cc4)oc3c2C2C(=O)c3c(OC(C)=O)cc(OC(C)=O)cc3OC2c2ccc(OC(C)=O)cc2)[C@H](OC(C)=O)[C@@H](OC(C)=O)[C@@H]1OC(C)=O | - | EC50 | - | - | - | >12.5 µg/mL |
| O.O=S([O-])CO.[Na+] | - | MIC | H37Rv | - | - | >100 µg/mL |
| CC(C)c1ccc2c(c1)CC[C@H]1[C@](C)(CNCCNC3CCCC(C)C3C)CCC[C@]21C | - | MIC | - | - | - | 25 µM |
| NCC[C@H](O)C(=O)N[C@@H]1C[C@H](N)[C@@H](O[C@H]2O[C@H](CN)[C@@H](O)[C@H](O)[C@H]2O)[C@H](O)[C@H]1O[C@H]1O[C@H](CO)[C@@H](O)[C@H](N)[C@H]1O | - | MIC | MDR10 | - | broth dilution / resazurin | 8 µg/mL |
| CC(C)C1/C(=N/O)CC(c2ccccc2)N(N=O)C1c1ccccc1 | - | inhibition | H37Rv | 6.25 µg/mL | resazurin | 46% |
| CCOC(=O)Nc1cc(NC/C(=C\O)c2ccc(C)cc2)c([N+](=O)[O-])c(N)n1 | - | inhibition | H37Rv | 12.5 µg/mL | - | 0% |
| Cc1cc(NC(=O)NC(=O)c2ccccc2N(C)C)ccc1Oc1ncc(Br)cn1 | - | MIC bound | H37Rv | - | BACTEC | ≤12.5 µg/mL |
| CC1CN(c2cc3c(cc2F)c(=O)c(C(=O)O)cn3-c2ccc(F)cc2F)CCN1 | - | MIC | ATCC 35823 | - | - | 1 µg/mL |
| CC(=O)Nc1cc(Cl)cc2cccnc12 | - | MIC | H37Rv | - | - | >100 µg/mL |
| Cc1ccc(Nc2cc(N)nc(N)n2)cc1Cl | - | MIC bound | H37Rv | - | BACTEC | ≤12.5 µg/mL |
| Br.CC(C(=O)c1ccccc1)N1CCCCC1 | - | MIC | H37Rv | - | - | >100 µg/mL |
| CC(C)(C)c1ccc(C2(Br)C(=O)NC(=O)C2=O)cc1 | - | MIC bound | H37Rv | - | BACTEC | >12.5 µg/mL |
| Fc1ccc(CCNCCNCC2CCCO2)cc1 | - | MIC | - | - | - | 50 µM |
| CC1CN(C(=O)/C=C/C(=O)OC2CCCCC2)CCN1C(=O)/C=C/C(=O)OC1CCCCC1 | - | MIC | ETA-R | - | - | >12.5 µg/mL |
| C=CC(O)CSCCCCCCCCCCCCCCCC | - | MIC | H37Rv | - | - | 100 µg/mL |
| CCOC(=O)Nc1cc(NC/C(=N\O)c2ccc(Cl)cc2)c([N+](=O)[O-])c(N)n1 | - | EC50 | H37Rv | - | - | >12.5 µg/mL |
| CC(C)c1ccc2c(c1)CC[C@H]1[C@](C)(CNCCNC[C@@H]3CC[C@H]4C[C@@H]3C4(C)C)CCC[C@]21C | - | MIC | - | - | - | 50 µM |
| CC(NCCNCCc1ccccc1)c1cccc2ccccc12 | - | MIC | - | - | - | 50 µM |
| CC1(C)OC2(CC1C1(C)C=CC(=O)O1)CC1C(O)(CCC34CC13C(=O)OC4c1ccoc1)O2 | - | MIC | H37Rv | - | BACTEC | ≥12.5 µg/mL |
| O=[N+]([O-])c1cccs1 | - | MIC | H37Rv | - | - | >100 µg/mL |
| O=C(NCCO)C(=O)N/N=C/c1ccc([N+](=O)[O-])o1 | - | inhibition | H37Rv | 12.5 µg/mL | BACTEC | 99% |
| CCOC(=O)Nc1cc2nc(C)c(-c3cccc(N)c3)nc2c(N)n1 | - | EC50 | H37Rv | - | - | >12.5 µg/mL |
| CCCCC(CC)CN1CN(CC(CC)CCCC)CC(C)(NCCNCc2cc(OC)c(OC)c(OC)c2)C1 | - | MIC | - | - | - | 12.5 µM |
| [Cl][Sn]([Cl])([Cl])[Cl].c1cnc2c(c1)ccc1cccnc12 | - | MIC bound | H37Rv | - | BACTEC | ≤12.5 µg/mL |
| C[C@H]1COc2c(N3CCN(C)CC3)c(F)cc3c(=O)c(C(=O)O)cn1c23 | - | MIC50 | DRUG-SUS | - | - | 0.25 µg/mL |
| Cc1nc2c([N+](=O)[O-])cccn2n1 | - | inhibition | H37Rv | 6.25 µg/mL | resazurin | 1% |
| CO[C@H]1/C=C/O[C@@]2(C)Oc3c(C)c(O)c4c(O)c(c(/C=N/N5CCN(C)CC5)c(O)c4c3C2=O)NC(=O)/C(C)=C\C=C\[C@H](C)[C@H](O)[C@@H](C)[C@@H](O)[C@@H](C)[C@H](OC(C)=O)[C@@H]1C | - | MIC | TN987 | - | - | >32 µg/mL |
| COc1ccc(N=C2C(=Nc3ccc(OC)cc3)N(S(=O)(=O)c3ccc(C)cc3)C(=S)N2c2ccccc2)cc1 | - | MIC bound | H37Rv | - | BACTEC | >12.5 µg/mL |
| Nc1ccc(S(=O)(=O)O)c2cccc(S(=O)(=O)O)c12 | - | MIC | H37Rv | - | - | >100 µg/mL |
| FC(F)(F)c1cc(Br)c2ccc3ncccc3c2n1 | - | MIC | H37Rv | - | BACTEC | ≥12.5 µg/mL |
| CCCCCCCCCCCC(=O)OCCSC#N | - | MIC | H37Rv | - | - | >100 µg/mL |
| CNc1ncccc1Nc1cc(=O)n2c3cccnc3n(C)c2c1 | - | inhibition | H37Rv | 6.25 µg/mL | resazurin | 10% |
| Cc1c(Br)c(C)c(-c2c(O)c(Br)c(-c3c(C)c(Br)c(C)c(Br)c3C)c(O)c2Br)c(C)c1Br | - | MIC | H37Rv | - | - | >100 µg/mL |
| O=P(O)(O)CN1CCNCCN(CP(=O)(O)O)CCNCC1 | - | inhibition | H37Rv | 6.25 µg/mL | resazurin | -19% |
| C[C@H](NCCNCc1ccc(C(F)(F)F)cc1)C1CCCCC1 | - | MIC | - | - | - | 50 µM |
| CCOC(=O)CC(=O)CCC(C)=O | - | MIC | H37Rv | - | - | >100 µg/mL |
| NC[C@H]1O[C@H](O[C@H]2[C@H](O)[C@@H](O[C@H]3O[C@H](CO)[C@@H](O)[C@H](N)[C@H]3O)[C@H](N)C[C@@H]2N)[C@H](O)[C@@H](O)[C@@H]1O | - | MIC | TN4826 (H) | - | - | >256 µg/mL |
| c1ccc(CCCCNCCNCc2ccc3c(c2)OCO3)cc1 | - | MIC | - | - | - | 25 µM |
| CC(C)c1ccc2c(c1)CC[C@H]1[C@](C)(CNCCNCCCCO)CCC[C@]21C | - | MIC | - | - | - | 50 µM |